This is an account of results in patent publication US20240279313A1, “BARRIER FUNCTION PRESERVING PEPTIDES FOR MEMBRANES” (priority 2021, published 2024).

Ends that are not written are not given here.

Series [1] relates to C57BL6/J mice challenged with LPS (E. coli O111:B4). Put plainly: LPS-induced endotoxemia model, tissue TUNEL+ cells. The following applies: 10 mg/kg LPS, 24 hours; single dose 250 μg intraperitoneal. In kind it is in vivo, mouse. The procedure:
FIG. 5. […] Results obtained from three independent experiments. […] Two-tailed t-test.
Animal experiments. All mouse experiments were performed according to European guidelines for Care and Use of laboratory Animals. Protocols were approved by the Committee on the Ethics of Animal Experiments of the Regierung von Oberbayern. […] Mice were sacrificed after 24 hours and lung, liver, kidney, and heart tissues were isolated and processed. Immunofluorescence staining was performed on fixed cryosections and imaged using confocal microscopy.
Animals were housed according to institutional regulations with ad libitum access to food and water. All mice were C57BL/6J background. For the endotoxemia model, female mice (16 weeks old) were challenged with 10 mg/kg LPS from E. coli (0111:B4) and treated with one single dose of 250 μg of apoMP1 intraperitoneally or saline as control. […]
Cryosections (4 μm) were fixed with cold acetone followed by antigen blockade using 5% goat serum/phosphate buffered saline. […] Cell death (TUNEL^+ cells) was detected using ApopTag® Red in silt Apoptosis Detection Kit (Millipore) following the manufacturer's instructions. […] Histological sections were quantified by computer-assisted morphometric analysis using ImageJ software (National Institutes of Health).

Series [2] can be described thus: SAXS, suppression of HIV-TAT-induced cubic phases (NGC).
Series [3] in a line: Cytotoxicity in the SINV in vitro studies. In kind it is cell-based.
Where [4] appears, read: HIV-TAT P/L 1/40 + test peptide P/L 1/50.
[5] abbreviates: HIV-TAT P/L 1/40 + test peptide P/L 1/100.

In the case of “D-W-F-K-A-F-Y-D-K-V-A-E-K-F-K-E-A-F (DWFKAFYDKVAEKFKEAF) [apoMP1, well-characterized apolipoprotein A-I mimetic peptide]”, in series [1], the “Liver tissue damage (TUNEL+ cells)” value is “fully abrogated” and the “Lung tissue damage (TUNEL+ cells)” value was “fully abrogated”. For the same substance, the Cubic phases present result in series [2] (HIV-TAT P/L 1/40 + test peptide P/L 1/25) is given as “complete absence of NGC-rich cubic phases”. In addition, in series [2] (setting [4]), the “<K> (NGC) of Pn3m cubic phase” value is given as “<K> = −2.79E−2 nm^−2” and the “Lattice parameter of Pn3m cubic phase” value was “Pn3m (α = 15.3 nm)”. Besides, in series [2] (setting [5]), the “<K> (NGC) of Pn3m cubic phase” value is on record as “<K> = −2.26E−2 nm^−2” and the “Lattice parameter of Pn3m cubic phase” value is “Pn3m (α = 17.0 nm)”.
As to “FFERVRQWAKEFWERVADG [AP2, FFERVRQWAKEFWERVADG]”, the Cytotoxicity result in series [3] is listed as “minimal cytotoxicity”.
“GDAVKEWFEKAWQKVKEFF [AP4, GDAVKEWFEKAWQKVKEFF]”: the Cytotoxicity entry in series [3] is recorded as “minimal cytotoxicity”.
In the case of “GDAVKEWFEKAWQKVKEFL [AP9, GDAVKEWFEKAWQKVKEFL]”, the Cytotoxicity entry in series [3] was “minimal cytotoxicity”.
Same read-out and setting: for “GDAVREWFEKAWQRVREFF [AP1, G-D-A-V-R-E-W-F-E-K-A-W-Q-R-V-R-E-F-F]” the value was “minimal cytotoxicity”.
“GEKAKEWVQAFWQKAKEYF [AP7, GEKAKEWVQAFWQKAKEYF]”: the Cytotoxicity entry in series [3] is given as “minimal cytotoxicity”.
Still for that read-out and setting: for “GEKLKQKAQEFFDAVKEWF [AP11, GEKLKQKAQEFFDAVKEWF]” the value was “minimal cytotoxicity”; for “GEKVKEFFQAFFQKAKEYW [AP8, GEKVKEFFQAFFQKAKEYW]”, “minimal cytotoxicity”.
As for “GEQLKQKFQEFWDKLKEWY [AP10, GEQLKQKFQEFWDKLKEWY]”, in series [3], the Cytotoxicity result is “minimal cytotoxicity”.
